Anti-infective test results gathered from many reports (values: NIAID ChemDB through PubChem).

All rows: whole-cell or culture tests; organism: Mycobacterium tuberculosis

Conditions beyond the fields shown may differ between rows. A number after MIC or MFC names an inhibition level or a share of isolates. MIC bound: limit read from a one-dose screen. Percent inhibition refers to the dose given; in toxicity tests it is the harm to the cells. Blank or dashed fields: not listed here. ECn: concentration that inhibits the pathogen or its effect by n%. a–b is a range or a potency band.

compound,read-out,strain or isolate,changes,tested at,read by,setting,value
Cc1c(F)c(N2CCNC(C)C2)cc2c1c(=O)c(C(=O)O)cn2C1CC1,MIC90,44 isolates (resistant),-,-,-,-,2 µg/mL
CC(/C=C/c1ccco1)=N\NC(=O)CC#N,MIC bound,H37Rv,-,-,BACTEC,-,>12.5 µg/mL
O=C(O)c1cn(C2CC2)c2cc(N3CCN(c4ccccc4)CC3)c(F)cc2c1=O,MIC90,-,-,-,-,-,4 µg/mL
CCOC(=O)NC1=NC(C(=O)c2ccc(Br)cc2)CS1,MIC,H37Rv,-,-,-,-,>50 µg/mL
CC(C)Cc1cnc(C(=O)/C=C/c2ccc(Br)cc2)cn1,MIC,H37Rv,-,-,absorbance,-,>100 µg/mL
CO[C@H]1/C=C/O[C@@]2(C)Oc3c(C)c(O)c4c(O)c(c5[nH]c(N(C)c6ccccc6)nc5c4c3C2=O)NC(=O)/C(C)=C\C=C\[C@H](C)[C@H](O)[C@@H](C)[C@@H](O)[C@@H](C)[C@H](OC(C)=O)[C@@H]1C,MIC,H37Rv,-,-,-,-,0.02 µg/mL
Nc1nc(-c2ccc(Cl)cc2)c(N=Nc2ccc(Br)cc2)s1,MIC,H37Rv,-,-,-,-,>12.5 µg/mL
O=C(/C=C/c1ccccc1Br)c1cnccn1,MIC,H37Rv,-,-,absorbance,-,25 µg/mL
CO[C@H]1/C=C/O[C@@]2(C)Oc3c(C)c(O)c4c(O)c(c5[nH]c(N(C)Cc6ccccc6)nc5c4c3C2=O)NC(=O)/C(C)=C\C=C\[C@H](C)[C@H](O)[C@@H](C)[C@@H](O)[C@@H](C)[C@H](OC(C)=O)[C@@H]1C,MIC,H37Rv,-,-,-,-,0.02 µg/mL
CN1C(=O)C(=O)N(CCCN2CCN(CCCN3C(=O)C(=O)N(C)C3=O)CC2)C1=O,inhibition,H37Rv,-,12.5 µg/mL,BACTEC,-,1%
Cc1ccc(Cl)c(Nc2nnc(-c3sc4ccc(Cl)cc4c3Cl)s2)c1,inhibition,H37Rv,-,6.25 µg/mL,BACTEC,-,0%
CCOC(=O)c1cc(-c2ccc(Cl)cc2)n(CCC(=O)NN)c1C,inhibition,H37Rv,-,6.25 µg/mL,BACTEC,-,0%
Cc1ccc(Nc2nnc(-c3sc4ccc(Cl)cc4c3Cl)s2)cc1,inhibition,H37Rv,-,6.25 µg/mL,BACTEC,-,0%
CCCNC(=O)Nc1ccc(S(=O)(=O)Nc2cc(C)on2)cc1,MIC100,H37Rv,-,-,broth dilution / absorbance,14 d,>1000 µM
Cc1cc(C)c(C(=O)N/N=C/c2ccc([N+](=O)[O-])o2)[nH]1,EC50,H37Rv,-,-,BACTEC,-,>6.25 µg/mL
CCCCCCCCCCN=c1cc2n(-c3ccc(Cl)cc3)c3ccccc3nc-2cc1Nc1ccc(Cl)cc1,MIC,H37Rv,-,-,-,-,1.33 µg/mL
CN(C)C(=S)N1C(=S)N(c2ccccc2)C(=Nc2ccccc2)C1=Nc1ccccc1,inhibition,H37Rv,-,12.5 µg/mL,BACTEC,-,0%
NNC(=O)c1ccncc1,MIC,H37Rv,-,-,absorbance,-,0.1–0.39 µg/mL
Cc1cc2c(cc1C)NC1C(=O)C(c3ccc(Cl)c(Cl)c3)OC1=N2,inhibition,H37Rv,-,12.5 µg/mL,BACTEC,-,-19%
Cc1cc(NS(=O)(=O)c2ccc(NC(=O)N(C(C)C)C(C)C)cc2)no1,MIC100,H37Rv,-,-,broth dilution / absorbance,21 d,250 µM
CCN(CC)CCNC(=O)c1c2nc3c(C(=O)NCCN(CC)CC)ccc(C)c3oc-2c(C)c(=O)c1N,MIC bound,H37Rv,-,-,BACTEC,-,>12.8 µg/mL
COc1c(N2CCNC(C)C2)c(F)cc2c(=O)c(C(=O)O)cn(C3CC3)c12,MIC90,23 isolates,-,-,-,-,0.031 µg/mL
O=C(O)C1CCCCC1c1c2ccc(=O)c(O)c-2oc2c(O)c(O)ccc12,MIC bound,H37Rv,-,-,BACTEC,-,>12.5 µg/mL
CO/N=C1\CN(c2nc3c(cc2F)c(=O)c(C(=O)O)cn3C2CC2)CC1CN,MIC50,44 isolates (resistant),-,-,-,-,8 µg/mL
Cc1cc(C)nc(NS(=O)(=O)c2ccc(N)cc2)n1,MIC,H37Rv,-,-,-,-,64 µg/mL
CCOC(=O)c1cc(-c2ccccc2)n(CC(=O)N/N=C/c2cn(C(C)=O)c3ccccc23)c1C,EC50,H37Rv,-,-,BACTEC,-,>6.25 µg/mL
CCCCc1cnc(C(=O)/C=C/c2ccc(Cl)cc2)cn1,MIC,H37Rv,-,-,absorbance,-,>50 µg/mL
CCOc1ccc(N2CC(=O)N3CCCCN3C(=O)C2)cc1,MIC bound,H37Rv,-,-,BACTEC,-,>12.5 µg/mL
COC(=O)NC1=NC(C(=O)c2ccc(Cl)c(Cl)c2)CS1,MIC,H37Rv,-,-,-,-,>50 µg/mL
Cc1ccc(/C=N/Nc2ccc([N+](=O)[O-])cn2)cc1,inhibition,H37Rv,-,12.5 µg/mL,BACTEC,-,44%
CO[C@H]1/C=C/O[C@@]2(C)Oc3c(C)c(O)c4c(O)c(c5[nH]c(N6CCN(C)CC6)nc5c4c3C2=O)NC(=O)/C(C)=C\C=C\[C@H](C)[C@H](O)[C@@H](C)[C@@H](O)[C@@H](C)[C@H](OC(C)=O)[C@@H]1C,MIC,H37Rv,-,-,-,-,0.005 µg/mL
COC(=O)NC1=NC(C(=O)c2ccc(C)cc2)CS1,MIC,H37Rv,-,-,-,-,>50 µg/mL
CCNC(=O)Nc1ccc(S(=O)(=O)Nc2cc(C)on2)cc1,MIC100,H37Rv,-,-,broth dilution / absorbance,21 d,62.5 µM
COC1(OC)C2(Cl)CC3C4(C)OC(Cl)(C31Cl)C42Cl,MIC bound,H37Rv,-,-,BACTEC,-,>12.5 µg/mL
CCOC(=O)c1cc(-c2ccc(C)cc2)n(CC(=O)NN)c1C,EC50,H37Rv,-,-,BACTEC,-,>6.25 µg/mL
CCN(CC)CCNc1ccc(CO)c2oc3ccc(OS(=O)(=O)c4ccc(C)cc4)cc3c(=O)c12,MIC,H37Rv,-,-,-,-,6.3 µg/mL
CO[C@H]1/C=C/O[C@@]2(C)Oc3c(C)c(O)c4c(O)c(c5[nH]c(N6CCOCC6)nc5c4c3C2=O)NC(=O)/C(C)=C\C=C\[C@H](C)[C@H](O)[C@@H](C)[C@@H](O)[C@@H](C)[C@H](OC(C)=O)[C@@H]1C,MIC,H37Rv,-,-,-,-,0.005 µg/mL
CC(C)N1CCN(c2cc3c(cc2F)c(=O)c(C(=O)O)cn3C2CC2)CC1,MIC90,-,-,-,-,-,0.125 µg/mL
CNP1(NC)=NP(NC)(NC)=NP(NC)(NC)=N1,MIC,H37Rv,-,-,BACTEC,-,≥128 µg/mL
CC(C)c1cnc(C(=O)/C=C/c2ccc(Br)cc2)cn1,MIC,H37Rv,-,-,absorbance,-,25 µg/mL
CC(C)N=C(N)N(OCCCOc1cc(Cl)c(Cl)cc1Cl)C(=N)N,MIC,H37Rv,-,-,-,-,8 µg/mL
NNC(=O)c1ccncc1,MIC100,H37Rv,-,-,broth dilution / absorbance,14 d,1 µM
O=[N+]([O-])c1c(C=Nc2ccccc2)oc(-c2ccc3c(c2)OCO3)c1-c1ccc2c(c1)OCO2,inhibition,H37Rv,-,12.5 µg/mL,BACTEC,-,-6%
C[C@H]1[C@H](c2ccc(O)cc2)c2cc(O)c(O)cc2C[C@H]1C,MIC,H37Rv,-,-,resazurin,-,>50 µg/mL
COC(=O)NC1=NC(C(=O)c2ccccc2)CS1,MIC,H37Rv,-,-,-,-,>200 µg/mL
O=[N+]([O-])c1ccc(N=Nc2c(Cl)c(O)c3ccccc3c2O)nc1,MIC,KM-R,-,-,-,-,>12.5 µg/mL
O=C(/C=C/c1ccccc1F)c1cnccn1,MIC,H37Rv,-,-,absorbance,-,12.5 µg/mL
C[N+](C)(C)CCOP(=O)([O-])OP(=O)([O-])OCC1CCC(n2ccc(N)nc2=O)O1.[Li+],inhibition,H37Rv,-,12.5 µg/mL,BACTEC,-,0%
Clc1ccc(Nc2cc3nc4ccccc4n(-c4ccc(Cl)cc4)c-3cc2=NC2CCCCCC2)cc1,MIC,H37Rv,-,-,-,-,0.13 µg/mL
CC(C)(C)c1cnc(C(=O)/C=C/c2ccccc2Br)cn1,MIC,H37Rv,-,-,absorbance,-,6.25 µg/mL
NNC(=O)c1ccncc1,MIC,Beijing,-,-,broth dilution,-,0.06 µg/mL
CCOC(=O)c1c(C)c(-c2ccccc2)n(CC(=O)N=Nc2c(O)[nH]c3ccccc23)c1C,EC50,H37Rv,-,-,BACTEC,-,>6.25 µg/mL
COc1ccc(Cc2cc(N=NC(N)=O)c(OC)cc2O)cc1,inhibition,H37Rv,-,12.5 µg/mL,BACTEC,-,59%
CO[C@H]1/C=C/O[C@@]2(C)Oc3c(C)c(O)c4c(O)c(c(/C=N/N5CCN(C)CC5)c(O)c4c3C2=O)NC(=O)/C(C)=C\C=C\[C@H](C)[C@H](O)[C@@H](C)[C@@H](O)[C@@H](C)[C@H](OC(C)=O)[C@@H]1C,MIC99,-,516Phe,-,-,-,>640 µg/mL
CC(C)Cc1cnc(C(=O)/C=C/c2ccc(Cl)cc2)cn1,MIC,H37Rv,-,-,absorbance,-,>25 µg/mL
CCOC(=O)NC1=NC(C(=O)c2ccc(Cl)c(Cl)c2)CS1,MIC,H37Rv,-,-,-,-,>200 µg/mL
COc1cc(O)c2c(=O)c(OC)c(-c3ccc(O)cc3)oc2c1OC,MIC,Clinical isolates,-,-,resazurin,multidrug-resistant,25–50 µg/mL
CCCCNC(=O)Nc1ccc(S(=O)(=O)Nc2cc(C)on2)cc1,MIC100,H37Rv,-,-,broth dilution / absorbance,21 d,62.5 µM
Cc1ccccc1Nc1nnc(-c2sc3ccc(Cl)cc3c2Cl)s1,inhibition,H37Rv,-,6.25 µg/mL,BACTEC,-,0%
CCOC(=O)c1c(C)[nH]c(C(=O)NN)c1C,inhibition,H37Rv,-,6.25 µg/mL,BACTEC,-,13%
O=[N+]([O-])c1ccccc1Nc1nnc(-c2sc3ccc(Cl)cc3c2Cl)s1,inhibition,H37Rv,-,6.25 µg/mL,BACTEC,-,98%
COc1c(N2C[C@@H]3CCCN[C@@H]3C2)c(F)cc2c(=O)c(C(=O)O)cn(C3CC3)c12,MIC50,23 isolates,-,-,-,-,0.062 µg/mL
CCCCN(C)c1nc2c([nH]1)c1c(O)c3c(O)c(C)c4c(c32)C(=O)[C@@](C)(O/C=C/[C@H](OC)[C@@H](C)[C@@H](OC(C)=O)[C@H](C)[C@H](O)[C@H](C)[C@@H](O)[C@@H](C)/C=C/C=C(/C)C(=O)N1)O4,MIC,H37Rv,-,-,-,-,0.005 µg/mL
CC(=O)Nc1ccc(C(=O)N2C(=N)C(C#N)=C(O)/C2=C\c2ccc(Cl)c(Cl)c2)cc1,inhibition,H37Rv,-,6.25 µg/mL,resazurin,-,1%
CO[C@H]1/C=C/O[C@@]2(C)Oc3c(C)c(O)c4c(O)c(c5[nH]c(N(Cc6ccccc6)c6ccccc6)nc5c4c3C2=O)NC(=O)/C(C)=C\C=C\[C@H](C)[C@H](O)[C@@H](C)[C@@H](O)[C@@H](C)[C@H](OC(C)=O)[C@@H]1C,MIC,H37Rv,-,-,-,-,0.04 µg/mL
CC(=O)NC[C@H]1CN(c2ccc(N3CCOCC3)c(F)c2)C(=O)O1,EC50,H37Rv (ATCC 27294),-,-,-,-,0.69 µg/mL
O=C(O)c1cn(C2CC2)c2c(Cl)c(N3C[C@@H]4CCCN[C@@H]4C3)c(F)cc2c1=O,MIC90,Resistant,-,-,-,-,0.13 µg/mL
CCCN=c1cc2n(-c3ccc(Cl)cc3)c3ccccc3nc-2cc1Nc1ccc(Cl)cc1,MIC,H37Rv,-,-,-,-,0.66 µg/mL
CC(C)c1cnc(C(=O)/C=C/c2ccc(Cl)cc2)cn1,MIC,H37Rv,-,-,absorbance,-,12.5 µg/mL
O=c1oc2ccccc2c(O)c1C=NC(=S)c1ccncc1,MIC bound,H37Rv,-,-,resazurin,-,>6.25 µg/mL
O=C([C@@H](O)CO)N1CC=C(c2c(F)cc(N3C[C@H](COc4ccon4)OC3=O)cc2F)CC1,MIC,linezolid resistant 8.3,T460C Cys154Arg,-,-,-,16 µg/mL
CCOC(=O)c1cc(-c2ccc(OC)cc2)n(CC(=O)NN)c1C,EC50,H37Rv,-,-,BACTEC,-,>6.25 µg/mL
O=[N+]([O-])c1ccc(Nc2nnc(-c3sc4ccc(Cl)cc4c3Cl)s2)cc1,inhibition,H37Rv,-,6.25 µg/mL,BACTEC,-,0%
COc1cc(-c2oc3c(OC)c(OC)cc(O)c3c(=O)c2OC)ccc1O,MIC,Clinical isolates,-,-,resazurin,multidrug-resistant,25 µg/mL
COC(=O)C1(C)C=C(Nc2ccccc2)C(=O)N1c1ccccc1,MIC,H37Rv,-,-,BACTEC,-,≥12.5 µg/mL
CCCCCNC(=O)Nc1ccc(S(=O)(=O)Nc2cc(C)on2)cc1,MIC100,H37Rv,-,-,broth dilution / absorbance,14 d,250 µM
CCOC(=O)C(=O)N=Nc1nc2c(O)c3ccccc3c(O)c2s1,MIC,H37Rv,-,-,BACTEC,-,0.8 µg/mL
COC(=O)NC1=NC(C(=O)c2ccc(OC)cc2)CS1,MIC,H37Rv,-,-,-,-,4 µg/mL